Source: paper PMC9325719 (Nature Communications, 2022)

Biological target: Na+-NQR (Na+-pumping NADH-ubiquinone oxidoreductase), inhibitor site at NqrB N-terminal region (Vibrio cholerae, UniProt A5F5X0, E157A)
Settings: substrates NADH and ubiquinone-1; 50% inhibition not reached at highest concentration; mutant activity 50-60% lower than wild type

aurachin D-42 showed an IC50 greater than 2000 nM.
